Measurements published in the supplement of paper PMC9931576.
Substitutions are numbered along the chain they refer to. Human monoclonal antibodies against the spike receptor-binding domain (heavy:light variable regions). IC50 against pseudoviruses bearing the spike of naturally observed variants; lower = stronger; >10 µg/ml means not reached at the top dose. No active / inactive call. The stated detection limit is 0.0005 µg/ml; values near or below 0.001 µg/ml lie at the floor of the assay.

B1: BD56-643 (protein)
chain 1: EVQLVESGGALVQPGGSLRLSCAASGFTFSNYDMHWVRQVTGKGLEWVSAIGTAGDTYYRDSMKGRFTVSRENAKSSLYLQMDSLRVGDTAVYYCTRGADAYDWYFDLWGRGTLVTVSS
chain 2: DIQMTQSPSSLSASVGDRVTITCRASQSISRYLNWYQWKPGKAPKLLIYAASSLQRGVPSRFSGSGSGTDFTLTISSLQPEDFATYYCQQSYTMPPATFGQGTKVEIK
B2: BD56-652 (protein)
chain 1: QVQLVQSGSELKKPGASVKVSCKASGYTFTHYAINWVRQAPGQGLEWMGWISTNTGNPTYVQGFTGRFVFSLDTSVSTAYLQIRSLKAEDTAVYYCARDLSDTLLVGGFDPWGQGTLVTVSS
chain 2: QLTQSPSSLSASLRDRVTITCRASEGISTYLAWYQQKPGKAPELLIHAASTLQSGVPSRFSGSGSGTDFTLTISSLQPEDFATYYCQQLNSYPYTFGQGTKLEIK
B3: BD56-658 (protein)
chain 1: QLVESGGGLVKPGGSLRLSCGASGFSFSDALMSWVRQAPGKGLEWVGRIKTEIDGGTIDYAAPVKGRFSISRDDSKNMLFLQMNSLKIEDTAVYYCTTAEWELGLFFDYWGQGTLVTVSS
chain 2: QSVLTQPPSASGTPGQRVTISCSGSSSNIGTNYVYWYQQFPGTAPKLLIYRNNQRPSGVPDRFSGSKSGTSASLAISGLRSEDEADYYCATWDDNLSGRGVFGGGTKLTVL
B4: BD56-671 (protein)
chain 1: QVQLVESGGGVVQPGRSLRLSCVASGFTFSRHALHWVRQAPGKGLEWVAVISYDGSKIHYGDSARGRFTISRDNSKNTLYLQMNSLRAEDTAFYHCARDLGFCTNGVCYVKGIYDYYFYGVDVWGQGTRVTVSS
chain 2: QSVVTQPPSASGTPGQRVTISCSGSSSNIGSYTVNWYQQLPATAPKLLIYNDNQRPSGVPDRFSGSKSGISASLAISGLQSEDEAEYYCAAWDDSLNGAWVFGGGTKLTVL
B5: BD56-674 (protein)
chain 1: QVHLVESGGGVVQPGRSLRLSCAGSGFIVSDYAVHWVRQAPGKGLEWVALMSSDESKKYFTDSVKGRFTFSRDNSKNTLYLQMNSLRPEDTAVYYCARESGFGMDILTGTGSDFDYWGQGTLVTVSS
chain 2: DIQMTQSPSSLSASVGDRVTITCRASQTISTYLNWYQQKPGKPPKSLIYAASNLQSGVPSRFSGSGSGTDFTLTISSLQPEDFATYYCQQTYSTPITFGQGTRLEIK
B6: BD56-681 (protein)
chain 1: QVQLVQSGAEVKKPGSSVKVSCKASGGTFNTYTVTWVRQAPGQGLEWMGRIIPFLLITNYAPKFQGRVTITADKSTSTAYMELSSLRSEDTAVYFCARDRGGGHCSDTSCYEDYFYYYGMDVWGQGTTVTVSS
chain 2: SYELTQPPSVSVSPGQTVSITCSGDKLGYKYACWYQQKAGQSPVLVIYQDNKRPSGIPERFSGSNSGNTATLTISGTQTMDEADYYCQAWDSSTSVVFGGGTKLTVL
B7: TAU-2189 (protein)
chain 1: EVQLLESGGGLVQPGGSLRLFCAASGFTFSSFAMSWVRQAPGKGLEWVSTISGSGGRTYYADSVKGRFTIFRDNSKNTLYLQMNSLRAEDTALYYCAKDMDIVVVITGDAFDIWGQGTMVTVSS
chain 2: SYELTQPPSVSVSPGQTARITCSGDALPKQYAYWYQQKPGQAPVLVIYKDSERPSGIPERFSGSSSGTTVTLTISGVQAEDEADYYCQSADSSGTYRVFGTGTKVTVL
B8: BD56-692 (protein)
chain 1: QVQLVQSGGEVKKPGASVKVSCKASGYTFTSYGISWVRQAPGQGLEWMGWINTYNGDTNFAQKFQGGVTMTTDTSTRTAYMELRSLRSDDTAVYYCARVSDYYASGSSLYYFDYWGQGTLVTVSS
chain 2: EIVMTQSPATLSVSPGERATLSCKASQSLRSNLAWYQQKPGQAPKVLIYGASTRATGIPARFSGSGSGTEFTLTISSLQSEDFAVYYCQQYDNWPPVWTFGHGTKVEIK
B9: BD56-693 (protein)
chain 1: QVQLVQSGAEVKKPGASVKVSCRASGYIFTSHYMHWVRQAPGQGLEWMGIINPSGGSRRYVQRFQGRVTMTRDTSTSTVYMELSSLTSEDTAVYYCAREGVGATAYFDYWGQGTLVTVSS
chain 2: SYVLTQPPSVSVAPGKTARITCGGNNIGSKSVHWYQQKPGQAPVLVVYDDSDRPSGIPERFSGSNSGNTATLTISRVEAGDEADYFCQVWDGSGDHPGYVFGTGTKVTVL
B10: BD56-695 (protein)
chain 1: QVQLVQSGSELKRPGASVKVSCKASGYTFINYAINWVRQAPGQGLEWMGWINTNTGGPTYAQGFTGRFVLSLDTSVSTAYLQISSLKAEDTAVYYCTRVRLAPVEDWFDPWGQGTLVTVSS
chain 2: B9 chain 2 with R19S, N25D, V47I, Y48F, D49Y, F86Y, G94P, P97Q
B11: BD56-697 (protein)
chain 1: QVQLQESGPGLVKPSQTLSLTCTVSGDSISSGGYYWSWIRQRPGKGLEWIGYIYYSGSTYYNPSLESRITISIDTSKNQFSLNLRSVTAADTAVYFCARDAIVVVPAALPEYYGMDVWGQGTTVTVSS
chain 2: SYELTQPPSVSVSPGQTARITCSGDALPKQHAYWYQQKSGQAPVLVIYRDNERPSGIPERFSGSSSGTTVTLTISGVQADDEADYYCQSADSTGIFVWVFGGGTRLTVL
B12: BD56-700 (protein)
chain 1: QVQLVQSGAEVKKPGASVRISCKASGYTFTNYYMHWVRQAPGQGLEWMGIINPGGGSTTYAQRFQGRVTMTRGTSTTTVYMELSSLTSEDTAVYYCARGGSPGDNDFWSGNPVHFDPWGQGTLVTVSS
chain 2: KFMLTQPHSVSESPGKTITISCTRSSGSIASDSVQWYQQRPGSAPTIVIYKDNQRPSGVPDRVSGSIDSSSNSATLTISGLKTEDEADYYCQSYDSGNHHWVFGGGTKLTVL

What was measured:
Assay in all cases: pseudovirus neutralization IC50; higher = weaker neutralization
[1] = target: SARS-CoV-2 Omicron BA.1 spike pseudovirus
Protocol: (§1)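 Single-round VSV luciferase pseudovirus mixed with antibody dilutions for 1 h and put on Huh-7 cells for about a day; IC50 from the dose curve.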

[2] = target: SARS-CoV-2 Omicron BA.2 spike pseudovirus
Protocol: as §1

[3] = target: SARS-CoV-2 Omicron BA.2.75 spike pseudovirus
Protocol: as §1

[4] = target: SARS-CoV-2 Omicron BA.5 spike pseudovirus
Protocol: as §1

[5] = target: SARS-CoV-2 Omicron BQ.1.1 spike pseudovirus
Protocol: as §1

[6] = target: SARS-CoV-2 Omicron XBB spike pseudovirus
Protocol: as §1

[7] = target: SARS-CoV-2 early D614G spike pseudovirus
Protocol: as §1

| Binder | pseudovirus neutralization IC50 [1] | pseudovirus neutralization IC50 [2] | pseudovirus neutralization IC50 [3] | pseudovirus neutralization IC50 [4] | pseudovirus neutralization IC50 [5] | pseudovirus neutralization IC50 [6] | pseudovirus neutralization IC50 [7] |
| --- | --- | --- | --- | --- | --- | --- | --- |
| B1 | > 10 mg/L | 8.08 mg/L | > 10 mg/L | > 10 mg/L | > 10 mg/L | > 10 mg/L | 3.98 mg/L |
| B2 | > 10 mg/L | > 10 mg/L | > 10 mg/L | > 10 mg/L | > 10 mg/L | > 10 mg/L | > 10 mg/L |
| B3 | 0.715 mg/L | 0.709 mg/L | 0.806 mg/L | 0.601 mg/L | 1.6 mg/L | 2.47 mg/L | > 10 mg/L |
| B4 | 0.00654 mg/L | 0.00412 mg/L | 0.00536 mg/L | 0.0503 mg/L | > 10 mg/L | > 10 mg/L | 0.00938 mg/L |
| B5 | 1.02 mg/L | 1.55 mg/L | 1.43 mg/L | 1.64 mg/L | > 10 mg/L | 6.43 mg/L | 3.04 mg/L |
| B6 | 0.65 mg/L | 0.739 mg/L | 0.962 mg/L | 0.511 mg/L | 1.95 mg/L | 2.9 mg/L | > 10 mg/L |
| B7 | > 10 mg/L | > 10 mg/L | > 10 mg/L | > 10 mg/L | > 10 mg/L | > 10 mg/L | > 10 mg/L |
| B8 | 2.03 mg/L | 2.12 mg/L | 2.59 mg/L | 2.81 mg/L | > 10 mg/L | > 10 mg/L | 3.76 mg/L |
| B9 | > 10 mg/L | > 10 mg/L | > 10 mg/L | > 10 mg/L | > 10 mg/L | > 10 mg/L | > 10 mg/L |
| B10 | 6.47 mg/L | 7.47 mg/L | 6.02 mg/L | > 10 mg/L | > 10 mg/L | 2.33 mg/L | 2.15 mg/L |
| B11 | > 10 mg/L | > 10 mg/L | > 10 mg/L | > 10 mg/L | > 10 mg/L | > 10 mg/L | > 10 mg/L |
| B12 | 0.968 mg/L | 2.08 mg/L | 1.6 mg/L | 2.26 mg/L | > 10 mg/L | > 10 mg/L | 2.1 mg/L |
